Percent effect of library compounds

The filed quantity is “Percent Effect” (%).
The controls that fix the scale are not given in the record; negative values are as filed.
The entries come from a sample that favours strong results.
Two or more numbers in one place are separate tests of the same structure; such repeats can differ widely.

Mtb glucose medium: 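Growth of Mycobacterium tuberculosis over 3 days (7H9 medium with glucose and tyloxapol); the read-out is not stated. Tested at 50 µM. Higher reads as more growth inhibition (inferred: compounds with an IC50 in retests scored well above the rest). Size under these conditions: about 69,000 compounds, about 760 of them at 50% or above in at least one test.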
Mtb cholesterol medium: 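Phenotypic screen: M. tuberculosis growth, cholesterol and DPPC medium, 4 days; the read-out is not stated. Tested at 50 µM. Direction is inferred from retests: higher values go with more growth inhibition. About 69,000 compounds were tested under these conditions; 0.54% (about 370) showed 50% or more at least once.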

- CS(=O)(=O)Cc1ccccc1NCc1cc(Cl)ccc1Cl : Mtb glucose medium: 33.16%; Mtb cholesterol medium: -5.745%
- CCc1nc(NCC2CCCN(C(=O)C3CC3)C2)c2cnn(C)c2n1 (stereo unspecified) : Mtb cholesterol medium: 7.483%
- Cc1ccccc1CSc1nc(N)cc(N2CCOCC(CO)C2)n1 (stereo unspecified) : Mtb glucose medium: -37.5%; Mtb cholesterol medium: -29.68%
- COc1ccc(CN2CCCC(Nc3cccc(F)c3)C2)cc1O (stereo unspecified) : Mtb cholesterol medium: 55.05%
- Cc1noc(CCCC(=O)NC(C)c2ccc(Cl)s2)n1 (stereo unspecified) : Mtb glucose medium: 50.24%
- CN1CCC(N(C)CCC(=O)N2CCC(CCc3ccccc3)CC2)C1 (stereo unspecified) : Mtb glucose medium: 63.4%
- Cc1ccc(CN(CCCn2ccnc2)Cc2[nH]cnc2C)s1.O=C(O)CC(O)(CC(=O)O)C(=O)O : Mtb glucose medium: 1.074%
- CC(C)n1c(=O)nc2n1C(=O)N(c1ccccc1)C2 : Mtb glucose medium: -5.225% and 17.14%
- [H][C@]12CN(C(=O)c3ccno3)CCN1C(=O)N(Cc1ccc(OC)cc1)C2 : Mtb glucose medium: 56.39% and -19.87%
- C=C(C)CNCC1(O)CCCN(Cc2ccc(F)c(F)c2)C1=O (stereo unspecified) : Mtb glucose medium: 14.66%
- O=C(NCC1CC1)c1cnc(-c2ccccc2)nc1 : Mtb glucose medium: 16.81% and 18.23%
- Cc1nnc(CSc2n[nH]c(-c3ccccn3)n2)o1 : Mtb glucose medium: -55.35% and -3.299%
- CCc1[nH]c2c(CNc3cnccn3)cc(F)cc2c1C : Mtb glucose medium: 42.46%; Mtb cholesterol medium: 43.64%
- CC1COCCN1Cc1nc(-c2cccc(C(F)(F)F)c2)no1 (stereo unspecified) : Mtb glucose medium: 1.924% and 5.358%; Mtb cholesterol medium: -7.232%
- CCc1c(C)sc2ncnc(N3CC[C@@H](N4CCOCC4)[C@H](O)C3)c12 : Mtb glucose medium: 50.45%
- Cc1nsc(C(=O)NCCCc2ccccc2)n1 : Mtb glucose medium: 59.76%; Mtb cholesterol medium: 48.79%
- Cc1cc(N2CCCCC2)c(C#N)c(C)n1 : Mtb glucose medium: 10.47%
- O=C(C1CC1)N1CCC(Oc2ccccc2Cl)CC1 : Mtb glucose medium: 31.53% and -0.3964%; Mtb cholesterol medium: 2.897%
- COCC(C)NCc1nc(-c2ccc(C)cc2)c(-c2ccccn2)[nH]1 (stereo unspecified) : Mtb glucose medium: 30.03%
- COc1ccc(-c2ccccc2CN)c(OC)c1 : Mtb glucose medium: 2.304% and 5.628%
- N#Cc1cccc(N2CCC3(CC2)Nc2ccccc2NC3=O)n1 : Mtb cholesterol medium: -1.71%
- NC(=O)NC(=O)CCN(Cc1ccccc1)CC1CCOCC1 : Mtb glucose medium: 84.62%
- CCn1cncc1CNc1ccc(-c2nc(CC(C)C)no2)cn1 : Mtb glucose medium: 43.12% and 36.31%
- O=C(C1CCCOC1)N1CCc2ccc(F)cc21 (stereo unspecified) : Mtb glucose medium: 4.655% and -19.24%
- CN(CC(C)(CO)CO)C(=O)Nc1cc(F)cc(F)c1 : Mtb glucose medium: 28.46% and 4.764%; Mtb cholesterol medium: 12.63%
- Cc1ccccc1N1CCN(C(=O)c2cnn(C(C)C)c2)C(C)C1 (stereo unspecified) : Mtb glucose medium: 7.42%
- COC(=O)c1ccc(N2CCC(C(O)c3ccccc3)CC2)nn1 (stereo unspecified) : Mtb glucose medium: 94.89%; Mtb cholesterol medium: 107.8%
- CNc1cc2c(nn1)CCN(C(=O)c1cccc3c1OCO3)C2 : Mtb glucose medium: 16.8%
- O=C1CCNc2ncc(-c3ccccc3Cl)cc2CN1C1CC1 : Mtb glucose medium: 35.5%
- CCc1ccc(NC(=O)c2ncc(C(N)=O)cc2Cl)cc1F : Mtb glucose medium: 15.26%
- Cc1noc(CCCC(=O)NC(C)c2cccnc2)n1 (stereo unspecified) : Mtb glucose medium: -23.35%
- [H][C@@]12CC[C@H](Oc3ccccc3Cl)[C@]1([H])CN(C(=O)CN(C)C)C2 : Mtb cholesterol medium: 9.936%
- CC(C)CNC(=O)c1nnsc1-c1ccccc1 : Mtb glucose medium: 6.724%
- NC(=O)C1CCN(Cc2ccc(S(=O)(=O)N3CCCC3)o2)CC1 : Mtb glucose medium: -13.51% and 110%
- O=C(NCCO)Nc1c(F)cc(F)cc1-c1ccccc1 : Mtb glucose medium: 3.894%
- Cc1nc(NC(=O)CCOCC(F)(F)F)ccc1Br : Mtb glucose medium: 30.29%
- CCc1nnc2n1CCN(C(=O)CN(C)Cc1ccccc1)C2 : Mtb glucose medium: 0.5283%
- COCCN(C)Cc1cc(Cl)ccc1OCC(O)CN1CCCCCC1 (stereo unspecified) : Mtb glucose medium: 14.67%; Mtb cholesterol medium: 51.22%
- CNS(=O)(=O)CC1CCCN1c1ccccn1 (stereo unspecified) : Mtb glucose medium: -31.76%
- O=C(O)C(F)(F)F.[H][C@@]12CN(Cc3cccs3)C[C@]1([H])C(=O)N(c1cncnc1)C2 : Mtb glucose medium: -6.401%
- Clc1ccc(OCCc2cc(C3CCN(c4ncccn4)C3)n[nH]2)cc1 (stereo unspecified) : Mtb cholesterol medium: 58.2% and 43.19%
- O=C(c1cnc(-c2noc3cc(N4CCCC4)ccc23)s1)N1CCCC1 : Mtb glucose medium: 54.53% and -2.864%
- CC(=O)N1CCCC(c2cccc(-n3ccnc3)n2)C1 (stereo unspecified) : Mtb glucose medium: 10.81%; Mtb cholesterol medium: 6.652%
- CCOC1COC2(CCN(Cc3ccc4c(c3)OCO4)CC2)C1 (stereo unspecified) : Mtb cholesterol medium: 70.51%

Once more, the final 3:

O=C(c1cnc(-c2noc3cc(N4CCCC4)ccc23)s1)N1CCCC1 gave Mtb glucose medium: 54.53% and -2.864%.
CC(=O)N1CCCC(c2cccc(-n3ccnc3)n2)C1 (stereo unspecified) gave Mtb glucose medium: 10.81%; Mtb cholesterol medium: 6.652%.
CCOC1COC2(CCN(Cc3ccc4c(c3)OCO4)CC2)C1 (stereo unspecified) gave Mtb cholesterol medium: 70.51%.

The values are deposited in ChEMBL (CHEMBL3988442, “University of Dundee, Small-Polar-MMV Screening Library” (2021)).